Legend:
rPirB^vp = rPirB^vp (Vibrio parahaemolyticus, UniProt A0A085YLC1); experiment: inhibition of rat erythrocyte hemagglutination; settings: PBS pH 7.4, room temperature, 2% Wistar rat erythrocytes
[1] = target: T1, PirAB^vp toxin complex (wild-type) (Vibrio parahaemolyticus, UniProt A0A085YLC1); experiment: affinity chromatography on alpha-galactose-Sepharose, elution with […] galactose; settings: phosphate buffer with 150 mM NaCl, pH 7.4; immobilised ligand
[2] = target: T1, PirAB^vp toxin complex (wild-type); experiment: inhibition of rat erythrocyte hemagglutination; settings: PBS pH 7.4

| Compound | Concentration (mM) ^a (rPirB^vp) [mM] | affinity chromatography on alpha-galactose-Sepharose, elution with 200 mM galact [1] | inhibition of rat erythrocyte hemagglutination [2] |
| --- | --- | --- | --- |
| N[C@@H](CSSC[C@H](N)C(=O)O)C(=O)O | 25 |  |  |
| OC[C@H]1OC(O)[C@H](O)[C@@H](O)[C@H]1O (stereo partly drawn) |  | identified and purified in a single step by affinity chromatography |  |
| N[C@H]1C(O)O[C@H](CO)[C@@H](O)[C@@H]1O (stereo partly drawn) | 25 |  | only GalNH2 and GlcNH2 were able to inhibit hemagglutination of the PirAB^vp complex |
| N[C@H]1C(O)O[C@H](CO)[C@H](O)[C@@H]1O (stereo partly drawn) | 25 |  | only GalNH2 and GlcNH2 were able to inhibit hemagglutination of the PirAB^vp complex |
| OC[C@H]1O[C@@H](O[C@H]2[C@H](O)[C@@H](O)C(O)O[C@@H]2CO)[C@H](O)[C@@H](O)[C@H]1O (stereo partly drawn) | 100 |  |  |
| OC[C@H]1O[C@H](O[C@H]2[C@H](O)[C@@H](O)C(O)O[C@@H]2CO)[C@H](O)[C@@H](O)[C@@H]1O (stereo partly drawn) | 100 |  |  |
| N=C(N)NCCC[C@H](N)C(=O)O | 25 |  |  |
